PubChem BioAssay AID624099 – ICCB-Longwood | 2012

Aim: 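Knock-downs relieving repression by E2 of an HPV18 LCR luciferase reporter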 (primary screen)
Cells: human C33A cervical carcinoma cells (HPV-negative) stably expressing BPV1 E2 and an HPV18 LCR luciferase reporter
Reagent: siRNA pool against human genes, 40 nM
Duration: 72 h
Measurement: 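HPV18 LCR reporter light per well, converted to plate-wise z-scores that exclude control wells, and averaged over triplicate plates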
Reading the numbers: mean z-score and z-score: higher = stronger reporter signal, weaker E2 silencing
Rule for the call: 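Mean z ≥ 2 together with z ≥ 2 in two or more of the three replicates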
The deposit covers about 21,000 reagents; below is an unselected part. Of all reagents, 497 (2.4%) were called active. 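Higher z means weaker E2 silencing; only reporter increases were scored, and knock-downs that hurt cell survival may mask genuine repressor factors.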 Unmarked entries are inactive.

The first 5 entries as a preview:
target gene,mean z-score,"z-score, replicate A","z-score, replicate B","z-score, replicate C"
CREB1,-1.08,-1.04,-1.48,-0.72
OTUB2,-0.68,-0.79,-0.7,-0.56
ANGEL1,-0.86,-1.07,-0.54,-0.96
SYT7,0.2,0.22,0.21,0.17
PLEKHA6,-1.51,-1.7,-1.56,-1.26

The listing, from the first entry:
target gene,mean z-score,"z-score, replicate A","z-score, replicate B","z-score, replicate C"
CREB1,-1.08,-1.04,-1.48,-0.72
OTUB2,-0.68,-0.79,-0.7,-0.56
ANGEL1,-0.86,-1.07,-0.54,-0.96
SYT7,0.2,0.22,0.21,0.17
PLEKHA6,-1.51,-1.7,-1.56,-1.26
LRGUK,-0.91,-1.08,-0.97,-0.69
RPS26,-1.46,-1.65,-1.5,-1.22
CENPE,0.08,0.09,-0.03,0.19
ATP1A3,0.19,-0.1,0.25,0.41
SPRED2,1.11,1.18,1.26,0.9
SH3BGRL,0.63,0.27,1.3,0.33
BORA,0.96,2.05,0.82,0
PTTG2,1.26,1.06,1.3,1.42
PPP1R1B,-1.04,-1.14,-1.28,-0.71
HCAR2,0.79,0.92,0.41,1.03
NAALAD2,0.21,0.52,0.19,-0.07
CTAG2,-0.16,0.34,-0.66,-0.17
SNTG2,-0.26,0.06,-0.29,-0.55
OR1G1,0.37,0.44,0.48,0.2
GPC6,-0.52,-0.54,-0.44,-0.58
SVOP,0.68,0.67,0.64,0.72
CCDC149,-0.49,-0.62,-0.39,-0.46
RHOBTB1,0.06,-0.08,-0.03,0.3
FOXD4,0.38,0.48,0.43,0.23
GIT1,-0.92,-0.88,-1.17,-0.71
COX6A1,-0.71,-0.45,-0.65,-1.04
TMPRSS11F,-0.07,-0.53,0.25,0.06
TBX5,-0.07,-0.25,-0.14,0.19
ZNF613,0.76,1.33,1.19,-0.25
LINC03163,0.32,0.03,0.48,0.47
NBL1,-0.1,-0.14,-0.06,-0.09
ST3GAL3,-0.02,-0.31,-0.01,0.26
IFNK,-1.1,-1.3,-0.83,-1.17
FAIM,0.3,0.26,0.26,0.37
OSCAR,-0.23,-0.11,-0.17,-0.42
PRKAR1B,1.02,1.28,0.78,1.01
TYW2,-0.22,-0.74,0,0.08
OR5K1,-0.08,-0.09,0.16,-0.31
NBPF1,-0.14,-0.55,0.02,0.1
NOP14,-0.4,-0.41,-0.26,-0.52
GBE1,-0.64,-0.9,-0.77,-0.26
C7orf33,0.71,1.02,0.7,0.41
MAP4K2,0.78,0.89,0.25,1.2
RPL15,-0.77,-0.66,-0.87,-0.77
IGSF3,0.61,0.88,0.65,0.29
FUNDC2P2,-0.99,-0.8,-1.09,-1.09
MRPL47,-0.85,-0.58,-1,-0.97
OR1I1,0.38,0.18,0.34,0.6
CACNA1S,-1.08,-1.17,-0.96,-1.1
LOC388819 (retired record),1.5,1.35,1.99,1.16
ST6GALNAC5,-0.85,-1,-0.58,-0.98
ZNF492,-1.42,-1.79,-1.55,-0.91
NT5C1B,0.25,0.23,0.19,0.33
HECTD1,2.07 (active),2.05,2.04,2.12
LRRC25,-1.93,-2.04,-1.68,-2.07
LINC01597,0.29,0.16,0.16,0.54
TMEM14C,0.04,0.24,-0.12,0
